Substitutions are numbered along the chain they refer to.
How the values were obtained:
[1] = target: MERS-CoV spike, full length, expressed on the cell surface (MERS-CoV, UniProt K9N5Q8); experiment: cell-based or functional assay
[2] = target: SARS-CoV-1/2 S2 stem helix peptide, biotinylated (SARS-CoV-2 (spike 1140-1164; same in …, biotin on the N-terminus); experiment: BLI; conditions: both partners purified
[3] = target: MERS-CoV S2 stem helix peptide, biotinylated (MERS-CoV (spike 1221-1247, UniProt …, biotin on the N-terminus)); experiment: BLI; conditions: both partners purified
[4] = target: SARS-CoV-1 spike, full length, expressed on the cell surface (SARS-CoV-1, strain , UniProt P59594); experiment: flow cytometry on cells; […] PE anti-human IgG Fc; MFI; conditions: one partner purified
[5] = target: SARS-CoV-2 S2 stem peptide used for crystallization (SARS-CoV-2 (spike 1140-1164; same in …); experiment: crystal structure; conditions: both partners purified
[6] = target: MERS-CoV S2 stem peptide used for crystallization (MERS-CoV (spike 1221-1247, UniProt …)); experiment: crystal structure; conditions: both partners purified
[7] = target: T1, SARS-CoV-1/2 S2 stem helix peptide, biotinylated (SARS-CoV-2 (spike 1140-1164; same in …, biotin on the N-terminus); experiment: BLI; conditions: both partners purified
T1 chain: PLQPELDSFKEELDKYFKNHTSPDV

B1: engineered CC65.1 mAb eCC65.1-12 (IgG) (antibody, V domains shown)
VH: EVQLVQSGAEVKKPGASVKVSCKASGYTFTSQYMHWVRQAPGQGLEWMGIIDPSGGGTSYAQKFRDRVSMTRDTPTSTVYMELRSLRSEDTAVYYCASLWFENPSWRDYWGQGTLVTVSS
VL: DVVMTQSPGTLSLSPGERATLSCRASQTVNKNYLAWYQQKPGQAPRLLIYHASSRATGIPDRFSGSGSGTDFTLTISRLEPEDFAVYYCQQYGASPPLFTFGPGTKLEIK
notes: copies: 2 + 2
In the case of B1, the “IC50 of neutralization of MERS-CoV pseudovirus (HeLa-hDPP4 cells)” value [1] is reported as 4.18 µg/mL, the “fold increase in affinity over parental CC65.1” value [2] is reported as 35.4 fold and the binding result [3] is reported as “binds”. B1: binds [4].

B2: CC65.1 human monoclonal antibody (IgG) (antibody, V domains shown)
VH: B1 VH
VL: B1 VL with K31S, H51R, A94S
notes: also called parental CC65.1; copies: 2 + 2
B2 was tested, and the Kd [2] was about 0.1 nM, the Kd [3] was about 1 nM and the binding result [4] was “binds”.

B3: CC65.1 single-chain variable fragment (scFv) (scFv, V domains shown)
VH: B1 VH
VL: B1 VL with K31S, H51R, A94S
B3: binds [5].

B4: CC65.1 Fab (Fab, V domains shown)
VH: B1 VH
VL: B1 VL with K31S, H51R, A94S
B4: binds [6].

B5: eCC65.1-12 Fab (Fab, V domains shown)
VH: B1 VH
VL: B1 VL
B5: binds [6].

B6: engineered CC65.1 mAb eCC65.1-6 (antibody, V domains shown)
VH: B1 VH
VL: VMTQSPGTLSLSPGERATLSCRASQTVNKNYLAWYQQKPGQAPRLLIYHASSRATGIPDRFSGSGSGTDFTLTISRLEPEDFAVYYCQQYGSSPPLFTFGPGTKLEIK
notes: copies: 2 + 2
B6: binds [3].

B7: engineered CC65.1 mAb eCC65.1-13 (antibody, V domains shown)
VH: B1 VH
VL: B6 VL with H49G, S92A
notes: source: Expi293, transfected, purified (Protein A and Protein G Sepharose); copies: 2 + 2
B7: binds [3].

B8: engineered CC65.1 mAb eCC65.1-2 (antibody, V domains shown)
VH: VQLVQSGAEVKKPGASVKVSCKATGYTFTSQYMHWVRQAPGQGLEWMGIIDPKGGGTSYAQKFRDRVSMTRDTPTSTVYMELRSLRSEDTAVYYCASLWFENPSWTDYWGQGTLVTVSS
VL: B6 VL
notes: copies: 2 + 2
B8: binds [7].

B9: engineered CC65.1 mAb eCC65.1-5 (antibody, V domains shown)
VH: B8 VH with K53S, L98I, T106R
VL: B6 VL with H49G
notes: copies: 2 + 2
B9: binds [7].

B10: engineered CC65.1 mAb eCC65.1-10 (antibody, V domains shown)
VH: B8 VH with T24S, T27D, K53S, T106S
VL: B6 VL with S92A
notes: copies: 2 + 2
B10: binds [7].

Source: paper PMC13480645 (PLOS Pathogens, 2026)
